A mixed list of measured activities; the numbers were collected in NIAID ChemDB.

Shared fields: growth or infection tests; species: Mycobacterium tuberculosis

Percent inhibition refers to the dose given; in toxicity tests it is the harm to the cells.

structure | measure | conditions | dose | method | strain | value
CN=C(NC)c1ccc(NC(=O)/C=C/C(=O)Nc2ccc(C(=NC)NC)cc2)cc1 | inhibition |  | 6.25 µg/mL | resazurin | H37Rv | 46%
O=c1oc2ccc(F)cc2c(=S)n1-c1ccc(Br)cc1 | MIC | 14 d |  |  | My 331/88 | 1 µM
CCCCCCCCCCCNCCNCCCO | MIC |  |  |  |  | 50 µM
CC1CN(c2cc3c(cc2F)c(=O)c(C(=O)O)cn3-c2ccc(F)cc2F)CCN1 | MBC |  |  |  | ATCC 35827 | 2 µg/mL
OCc1ccccc1Sc1ccccc1CNCCNCC(c1ccccc1)c1ccccc1 | MIC |  |  |  |  | 6.25 µM
Cc1cc(=O)cc2sc3cc(Cl)ccc3nc1-2 | inhibition |  | 12.5 µg/mL | BACTEC | H37Rv | 96%
Oc1ccccc1C=Nc1ccc(N=Cc2ccccc2O)cc1 | MIC |  |  |  | H37Rv | >100 µg/mL
CCCCCCCCCCCNCCNCc1ccc(C(F)(F)F)cc1 | MIC |  |  |  |  | 25 µM
COc1ccccc1/C=C/C(=O)c1ccccc1O | EC50 |  |  |  | H37Rv | >12.5 µg/mL
Nc1ccc2oc3ccc(N)cc3c2c1 | MIC |  |  |  | H37Rv | >100 µg/mL
CCOC(=O)Nc1cc2[nH]c(CCc3ccccc3)nc2c(N(CCc2ccccc2)Cc2ccccc2)n1 | EC50 |  |  |  | H37Rv | <12.5 µg/mL
CCCCCCCCCCCNCCNC(C)Cc1ccc(Cl)cc1 | MIC |  |  |  |  | 50 µM
CCOC(=O)Nc1cc(NC(CC)C(O)c2ccccc2)c([N+](=O)[O-])c(N)n1 | EC50 |  |  |  | H37Rv | >12.5 µg/mL
CN1CCCC(COC(=O)c2ccc([N+](=O)[O-])cc2)C1 | MIC |  |  |  | H37Rv | >100 µg/mL
CO[C@H]1/C=C/O[C@@]2(C)Oc3c(C)c(O)c4c(=O)c(c5oc6cc(N7CCN(CC(C)C)CC7)cc(=O)c6nc5c4c3=C2O)NC(=O)/C(C)=C\C=C\[C@H](C)[C@H](O)[C@@H](C)[C@@H](O)[C@@H](C)[C@H](OC(C)=O)[C@@H]1C | MIC |  |  |  | 31 (rifampin-resistant) | 0.1 µg/mL
C/C=C1\N=C(c2ccccc2)OC1=O | MIC |  |  |  | H37Rv | >100 µg/mL
C[C@H]1COc2c(N3CCN(C)CC3)c(F)cc3c(=O)c(C(=O)O)cn1c23 | MIC |  |  |  | ATCC 35823 | 0.25 µg/mL
Cc1ccc(S(=O)(=O)O)cc1 | MIC |  |  |  | H37Rv | >100 µg/mL
CCOC(=O)/C=C/C(=O)NNS(=O)(=O)CCC(N)C(=O)O | inhibition |  | 12.5 µg/mL | BACTEC | H37Rv | -6%
COc1ccc(C(=O)/C=C/c2ccccc2)c(O)c1 | EC50 |  |  |  | H37Rv | <12.5 µg/mL
CCCCCCCCCCCCCCCCCCNCCNC12CC3CC(CC(C3)C1)C2 | MIC |  |  |  |  | 25 µM
COc1cccc(C)c1N | MIC |  |  |  | H37Rv | >100 µg/mL
CC[C@H]1OC(=O)[C@H](C)[C@@H](O[C@H]2C[C@@](C)(OC)[C@@H](O)[C@H](C)O2)[C@H](C)[C@@H](O[C@@H]2O[C@H](C)C[C@H](N(C)C)[C@H]2O)[C@](C)(OC)C[C@@H](C)C(=O)[C@H](C)[C@@H](O)[C@]1(C)O | MBC90 |  |  |  | MDR | >8 µg/mL
CO[C@H]1/C=C/O[C@@]2(C)Oc3c(C)c(O)c4c(=O)c(c5oc6cc(N7CCN(C(C)C)CC7)cc(=O)c6nc5c4c3=C2O)NC(=O)/C(C)=C\C=C\[C@H](C)[C@H](O)[C@@H](C)[C@@H](O)[C@@H](C)[C@H](OC(C)=O)[C@@H]1C | MBC |  |  |  | 9 (rifampin-resistant) | 0.1 µg/mL
CCOC(=O)c1csc(CCCOCc2ccccc2)c1NC(=O)c1ccccc1 | MIC |  |  |  | H37Rv | >100 µg/mL
CC1(C)[C@H]2CC[C@@H](CNCCNCCc3ccccc3F)[C@@H]1C2 | MIC |  |  |  |  | 50 µM
COc1ccc(/C=C/C(=O)c2cccc(F)c2O)cc1 | inhibition |  | 12.5 µg/mL |  | H37Rv | 45%
COc1ccc(OC)c(CCNCCN[C@H]2C[C@H]3CC[C@]2(C)C3(C)C)c1 | MIC |  |  |  |  | 25 µM
CC(NC(=O)C(NC(=O)c1ccc[n+](Cc2ccccc2)c1)C(C)C)C(N)=O.[Br-] | inhibition |  | 12.5 µg/mL | BACTEC | H37Rv | 7%
NCC[C@H](O)C(=O)N[C@@H]1C[C@H](N)[C@@H](O[C@H]2O[C@H](CN)[C@@H](O)[C@H](O)[C@H]2O)[C@H](O)[C@H]1O[C@H]1O[C@H](CO)[C@@H](O)[C@H](N)[C@H]1O | MIC |  |  |  | TN4728 (BN) | >256 µg/mL
COc1ccc(C2CC(=O)c3ccc(I)cc3O2)cc1 | EC50 |  |  |  | H37Rv | >12.5 µg/mL
Nc1nccc(Oc2ccc([As](=O)(O)O)cc2)n1 | MIC |  |  |  | H37Rv | >100 µg/mL
FC(F)(F)c1cc(Nc2nc(-c3ccccc3)nc3c2C(=NCc2ccco2)OC3=NCc2ccco2)ccc1Cl | inhibition |  | 12.5 µg/mL | BACTEC | H37Rv | 3%
Cc1cc(C)nc(N)n1 | MIC |  |  |  | H37Rv | >100 µg/mL
CC(=O)Oc1ccc([C@@H]2CC(=O)c3c(cc(OC(C)=O)c(-c4c(OC(C)=O)cc5c(c4OC(C)=O)C(=O)C[C@@H](c4ccc(OC(C)=O)cc4)O5)c3OC(C)=O)O2)cc1 | EC50 |  |  |  | H37Rv | >12.5 µg/mL
CSC(=S)N/N=C\C(O)C(O)C(O)C(O)CO | MIC |  |  | BACTEC | H37Rv | 8 µg/mL
COc1cc(CNCCNCc2ccccc2F)cc(OC)c1OC | MIC |  |  |  |  | 50 µM
Clc1ccc(C(c2ccc(Cl)cc2)N2CCOCC2)cc1 | MIC |  |  |  | H37Rv | >100 µg/mL
CN1CC(O)C2=CC(=O)C(=O)C=C21 | MIC bound |  |  | BACTEC | H37Rv | >12.5 µg/mL
Fc1ccccc1CCNCCNCC12CC3CC(CC(C3)C1)C2 | MIC |  |  |  |  | 50 µM
CO[C@H]1/C=C/O[C@@]2(C)Oc3c(C)c(O)c4c(O)c(c(/C=N/N5CCN(C)CC5)c(O)c4c3C2=O)NC(=O)/C(C)=C\C=C\[C@H](C)[C@H](O)[C@@H](C)[C@@H](O)[C@@H](C)[C@H](OC(C)=O)[C@@H]1C | MIC |  |  |  | 7S | 1 µg/mL
CSc1nc(Nc2ccccc2Cl)cc(C(=O)O)n1 | inhibition |  | 12.5 µg/mL | BACTEC | H37Rv | 0%
O=C(/C=C/c1ccc(Cl)cc1)c1ccccc1O | EC50 |  |  |  | H37Rv | <12.5 µg/mL
C1CCC2C(C1)CCCN2CCNCC12CC3CC(CC(C3)C1)C2 | MIC |  |  |  |  | 18.8 µM
CC[C@H]1OC(=O)[C@H](C)[C@@H](O[C@H]2C[C@@](C)(OC)[C@@H](O)[C@H](C)O2)[C@H](C)[C@@H](O[C@@H]2O[C@H](C)C[C@H](N(C)C)[C@H]2O)[C@](C)(O)C[C@@H](C)C(=O)[C@H](C)[C@@H](O)[C@]1(C)O | MIC50 |  |  |  | Drug-resistant | >8 µg/mL
CCOCCc1c(O)[nH]c(=O)c(C#N)c1C | MIC |  |  |  | H37Rv | >100 µg/mL
CNc1ccc(C)cc1S(=O)(=O)c1ccccc1[N+](=O)[O-] | inhibition |  | 12.5 µg/mL | BACTEC | H37Rv | 32%
N=c1sc2ccccc2n1CC(=O)O | MIC |  |  |  | H37Rv | >100 µg/mL
O=C1c2c(O)cc(O)cc2O[C@H](c2ccc(O)cc2)[C@H]1c1c(O)cc(O)c2c(=O)cc(-c3ccc(O)c(O)c3)oc12 | EC50 |  |  |  | H37Rv | >12.5 µg/mL
Cc1cc(N/N=C(/c2ccccc2)c2ccccn2)nc2ccccc12 | MIC bound |  |  | BACTEC | H37Rv | ≤12.5 µg/mL
CCOC(=O)Nc1cc(N)c([N+](=O)[O-])c(NC/C(CNc2ccc(C(=O)OCC)cc2)=N\O)n1 | EC50 |  |  |  | H37Rv | >12.5 µg/mL
Nc1ccc2c(c1)[nH]c(=O)c1cc(Cl)c(Cl)cc12 | inhibition |  | 6.25 µg/mL | resazurin | H37Rv | 73%
CCOC(=O)Nc1cc2c(nc(-c3ccccc3)c3nncn32)c(NC(c2ccccc2)c2ccccc2)n1 | EC50 |  |  |  | H37Rv | >12.5 µg/mL
Cn1c(=O)ccc2c(=O)c3c(ccc4ccccc43)oc21 | MIC bound |  |  | BACTEC | H37Rv | >12.5 µg/mL
CC(=O)C(=O)CCCCCC(=O)O | MIC |  |  |  | H37Rv | >100 µg/mL
CC1COc2c(N3CCN(C)CC3)c(F)cc3c(=O)c(C(=O)O)cn1c23 | MBC |  |  |  | ATCC 35828 | 2 µg/mL
NC(=O)C(=O)C1C(=O)N(c2ccccc2)N=C1N | MIC bound |  |  | resazurin | H37Rv | >6.25 µg/mL
NCC[C@H](O)C(=O)N[C@@H]1C[C@H](N)[C@@H](O[C@H]2O[C@H](CN)[C@@H](O)[C@H](O)[C@H]2O)[C@H](O)[C@H]1O[C@H]1O[C@H](CO)[C@@H](O)[C@H](N)[C@H]1O | MIC |  |  | broth dilution / resazurin | MDR13 | 16 µg/mL
O=c1oc2ccc(Br)cc2c(=S)n1-c1ccc(C(F)(F)F)cc1 | MIC | 21 d |  |  | My 331/88 | 4 µM
COc1ccc(CNCCNC[C@@H]2CC[C@H]3C[C@@H]2C3(C)C)c(OC)c1 | MIC |  |  |  |  | 50 µM
CC(=O)NC[C@H]1CN(c2ccc(N3CCOCC3)c(F)c2)C(=O)O1 | MIC |  |  |  | 9S | 0.5 µg/mL
CC(=O)N1C(C)CC(=O)N1c1ccccc1 | MIC |  |  |  | H37Rv | >100 µg/mL
CC1C=CC(C)N(C(N)=O)N1C(N)=O | inhibition |  | 12.5 µg/mL | BACTEC | H37Rv | -3%
CCOc1ccc(N)c([N+](=O)[O-])c1 | MIC |  |  |  | H37Rv | >100 µg/mL
N[C@H](C(=O)O)[C@H]1ON=C(Cl)[C@@H]1O | MIC |  |  |  | KM-R | 12.5 µg/mL
Nc1nc(N)nc(Nc2cccc(C(=O)O)c2)n1 | MIC |  |  |  | H37Rv | >100 µg/mL
CCOC(=O)Nc1cc2[nH]cnc2c(NC(c2ccccc2)c2ccccc2)n1 | EC50 |  |  |  | H37Rv | >12.5 µg/mL
S=C(Nc1ccc(Br)c(Cl)c1)SCc1ccc2c(c1)OCO2 | MIC |  |  | BACTEC | H37Rv | 64 µg/mL
COc1ccc(CCNCCNCc2ccc(OC)cc2OC)cc1 | MIC |  |  |  |  | 12.5 µM
O=c1oc2ccc(F)cc2c(=S)n1-c1cccc(F)c1 | MIC | 21 d |  |  | My 331/88 | 16 µM
c1cncc(C2Nc3cccc4cccc(c34)N2)c1 | MIC bound |  |  | BACTEC | H37Rv | >128 µg/mL
c1ccc(CC2=NCCN2)cc1 | MIC |  |  |  | H37Rv | >100 µg/mL
O=S(=O)([O-])C1CC2C(c3ccccc31)N1ON2O1.[Na+] | MIC |  |  | BACTEC | H37Rv | ≥12.5 µg/mL
CCCCC(CC)CN1CN(CC(CC)CCCC)CC(C)(NCCNC2CCCC2)C1 | MIC |  |  |  |  | 25 µM
Nc1ccc(S(=O)(=O)[O-])c2cccnc12.[Na+] | MIC |  |  |  | H37Rv | >100 µg/mL
Cc1cc(Cl)cc2c1NC(=O)C2(O)C(C(=O)C1=CCC=C=C1)c1ccccc1 | MIC bound |  |  | resazurin | H37Rv | >6.25 µg/mL
O=C(/C=C/c1cc2ccccc2c2ccccc12)c1cccc(O)c1 | EC50 |  |  |  |  | <12.5 µg/mL
O=C1c2ccccc2C(=O)N1CCCBr | MIC |  |  |  | H37Rv | >100 µg/mL
Cc1ccc2oc(=O)n(-c3ccc(Br)cc3)c(=S)c2c1 | MIC | 14 d |  |  | My 331/88 | 0.5 µM
CCCCCCCCCCCCCCCCNC(=S)N/N=C/c1ccc(NC(C)=O)cc1 | MIC bound |  |  | BACTEC | H37Rv | ≤12.5 µg/mL
CCc1ccc(C(=O)c2ccccc2)cc1 | MIC |  |  |  | H37Rv | 100 µg/mL

A second listing of 11 rows from above:

structure,measure,conditions,dose,method,strain,value
CCOCCc1c(O)[nH]c(=O)c(C#N)c1C,MIC,,,,H37Rv,>100 µg/mL
c1ccc(CC2=NCCN2)cc1,MIC,,,,H37Rv,>100 µg/mL
CC1(C)[C@H]2CC[C@@H](CNCCNCCc3ccccc3F)[C@@H]1C2,MIC,,,,,50 µM
Cc1cc(N/N=C(/c2ccccc2)c2ccccn2)nc2ccccc12,MIC bound,,,BACTEC,H37Rv,≤12.5 µg/mL
CC(=O)N1C(C)CC(=O)N1c1ccccc1,MIC,,,,H37Rv,>100 µg/mL
S=C(Nc1ccc(Br)c(Cl)c1)SCc1ccc2c(c1)OCO2,MIC,,,BACTEC,H37Rv,64 µg/mL
CC(NC(=O)C(NC(=O)c1ccc[n+](Cc2ccccc2)c1)C(C)C)C(N)=O.[Br-],inhibition,,12.5 µg/mL,BACTEC,H37Rv,7%
CN=C(NC)c1ccc(NC(=O)/C=C/C(=O)Nc2ccc(C(=NC)NC)cc2)cc1,inhibition,,6.25 µg/mL,resazurin,H37Rv,46%
c1cncc(C2Nc3cccc4cccc(c34)N2)c1,MIC bound,,,BACTEC,H37Rv,>128 µg/mL
CCOC(=O)c1csc(CCCOCc2ccccc2)c1NC(=O)c1ccccc1,MIC,,,,H37Rv,>100 µg/mL
C[C@H]1COc2c(N3CCN(C)CC3)c(F)cc3c(=O)c(C(=O)O)cn1c23,MIC,,,,ATCC 35823,0.25 µg/mL

ECn: concentration that inhibits the pathogen or its effect by n%. Blank or dashed fields: not listed here. Rows are shuffled and stem from different studies. MIC bound: limit read from a one-dose screen. A number after MIC or MFC names an inhibition level or a share of isolates.